Results of unrelated studies side by side (data: NIAID ChemDB).

All rows: whole-cell or culture tests; species: Pneumocystis carinii; read-out: EC50

Neighbouring rows are from separate reports. ECn is the concentration giving n% inhibition of infection, replication or growth.

OC(Cn1cncn1)(Cn1cncn1)c1ccc(F)cc1F ; cell line: WI-38 ; setting: 10 d ; result: >10 µg/mL
C(=C\COc1ccc(C2=NCCN2)cc1)/COc1ccc(C2=NCCN2)cc1 ; result: <0.2 µM
CC(=O)N(O)CCCCCNC(=O)CCC(=O)N(O)CCCCCNC(=O)CCC(=O)N(O)CCCCCN.[Ca] ; cell line: Human fibroblasts ; setting: 7 d ; result: <30 µM
COc1cc(NCc2ccc3nc(N)nc(N)c3c2C)cc(OC)c1OC ; result: 10 µg/mL
CC(=O)N(O)CCCCCNC(=O)CCC(=O)N(O)CCCCCNC(=O)CCC(=O)N(O)CCCCCN ; result: <50 µM
NCCCNCCCCCCCNCCCN ; result: >30 µM
N=C(N)c1ccc(OC/C=C\COc2ccc(C(=N)N)cc2)cc1 ; result: <0.2 µM
[Ca+2] ; cell line: Human fibroblasts ; setting: 7 d ; result: >30 µM
Cc1[nH]c2nc(N)[nH]c(=O)c2c1CSc1ccncc1 ; result: <32 µM
N=C(N)c1ccc(OCCCCOc2ccc(C(=N)N)cc2)cc1 ; result: <0.2 µM
CCCCCN=C(N)c1ccc(N2CCCN(c3ccc(C(N)=NCCCCC)cc3)CC2)cc1 ; result: >1 µM
CC(C)CN(C[C@@H](O)[C@H](Cc1ccccc1)NC(=O)O[C@H]1CCOC1)S(=O)(=O)c1ccc(N)cc1 ; result: <0.32 µM
NC(=NCC1CC1)c1ccc(N2CCCN(c3ccc(C(N)=NCC4CC4)cc3)CC2)cc1 ; result: <1 µM
COc1cc(N(C(C)=O)C(C)CCCN2C(=O)CN(C(C)=O)C2(C)C)c2ncccc2c1 ; cell line: A549 ; setting: 72 h ; result: >50 µg/mL
NC(=NCC1CCCC1)c1ccc(N2CCCN(c3ccc(C(N)=NCC4CCCC4)cc3)CC2)cc1 ; result: >1 µM
O=C(Cn1ccnc1[N+](=O)[O-])NCCO ; cell line: WI-38 ; setting: 10 d ; result: >10 µg/mL
CCc1c(O)c(=O)ccn1CC ; cell line: Human fibroblasts ; setting: 7 d ; result: <72 µM
NC(=NCc1ccccc1)NC(=O)c1nc(Cl)c(N)nc1N ; result: >100 µM
CC(=O)N1CCN(c2ccc(OC[C@H]3CO[C@](Cn4ccnc4)(c4ccc(Cl)cc4Cl)O3)cc2)CC1 ; cell line: WI-38 ; setting: 10 d ; result: <10 µg/mL

The last 2 rows once more:

{"SMILES": "NC(=NCc1ccccc1)NC(=O)c1nc(Cl)c(N)nc1N", "result": ">100 µM"}
{"SMILES": "CC(=O)N1CCN(c2ccc(OC[C@H]3CO[C@](Cn4ccnc4)(c4ccc(Cl)cc4Cl)O3)cc2)CC1", "cell line": "WI-38", "setting": "10 d", "result": "<10 µg/mL"}